The text below walks through data of PMC11925246 (Journal of Bacteriology, 2025).

For test [1], the system named is popA expression. The settings on record: 0.5 mM malic acid, popA-lacZ Δrsc1598 resting cells, compared to the wild type (Fig. 7A).
The subject of test [2] is hrpB expression in rsc1598 mutant. The settings on record: 0.5 mM malic acid, hrpB-lacZ Δrsc1598 resting cells versus hrpB-lacZ (Fig. 7B).

For the compound `O=C(O)CC(O)C(=O)O` (centres unmarked) [Malic acid, malic acid], in test [1], the “popA expression induced by malic acid in rsc1598 mutant” value is on record as “significantly reduced popA expression compared to the wild type”. In test [2], the “hrpB expression induced by malic acid in rsc1598 mutant” value was “reduced hrpB expression”.
